Results deposited as PubChem BioAssay AID504761 (Drosophila RNAi Screening Center, 2011).
The screen tested about 22,000 reagents; this is a random part of those with a known target gene and a result. Over the whole deposit, 116 (0.52%) got an active call. 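Calls depend on retest data that are not deposited; infection was ranked per plate without normalising between plates; the unit of the infection score is not given.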 The raw values are shown without normalisation. A plus sign joins genes that one reagent is predicted to hit. Not all columns of the deposit are shown. No sequences are given here. The record does not give: the amount of reagent, the time to read-out.

Screen: 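Fly genes whose silencing reduces dengue virus type 2 infection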 (primary screen)
System: D.Mel-2 cells from Drosophila
Knock-down reagent: long dsRNA against Drosophila genes
Conditions: infection with dengue virus type 2; dose and infection time not stated
Detection: 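Per well on two replicate plates, imaging gave the percent of cells positive for viral envelope protein, ranked by infection, and a nuclear count of cells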
Reading the numbers: infection score: higher = more virus-infected cells; cell count: higher = more cells in the well
Hit rule: 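Very low infection ranking in both replicate wells (chance probability at most 0.065), then a retest showing infection dropped 1.5-fold or more at p below 0.05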
Meaning of the calls: active = confirmed: knock-down lowers infection; inactive = not picked or not confirmed

predicted target	dsRNA	infection score, replicate 1	infection score, replicate 2	cell count, replicate 1	activity call
Amt (Ammonium transporter)	DRSC16055	2.55	4.24	6357	inactive
Amt (Ammonium transporter)	DRSC27970	10.9	11.5	6471	inactive
Membrin	DRSC10448	6.76	7.18	6081	inactive
RpS5a (Ribosomal protein S5a)	DRSC20282	16.5	4.35	5831	inactive
alpha-Man-Ic (alpha-Mannosidase class I c)	DRSC21674	1.74	2.82	6278	inactive
alpha-Man-Ic (alpha-Mannosidase class I c)	DRSC27509	4.93	7.02	6434	inactive
CG31200	DRSC15285	3.76	5.03	6463	inactive
Incenp (Inner centromere protein)	DRSC06116	2.84	4.06	6613	active
Incenp (Inner centromere protein)	DRSC21950	6.19	1.68	3847	inactive
Incenp (Inner centromere protein)	DRSC28036	3.7	32.8	1459	inactive
CG13193	DRSC06318	21	12.3	5132	inactive
CR31292 (pseudo)	DRSC13120	4.43	1.15	5920	inactive
Kots (Kotsubu)	DRSC16581	6.79	11.1	6704	inactive
CG32104	DRSC10127	3.97	6.81	6298	inactive
CG32104	DRSC10128	3.07	4.96	5314	inactive
Cad96Cb (Cadherin 96Cb)	DRSC14243	3.83	3.52	7158	inactive
Cad96Cb (Cadherin 96Cb)	DRSC14665	0.46	1.32	6589	inactive
Cad96Cb (Cadherin 96Cb)	DRSC28720	12.5	5.83	1741	inactive
Jon99Fi (Jonah 99Fi)	DRSC26496	3.42	1.46	5942	inactive
Or98a (Odorant receptor 98a)	DRSC16774	3.1	4.36	484	inactive
Or98a (Odorant receptor 98a)	DRSC26173	17.3	1.24	6281	inactive
VhaM9.7-a (Vacuolar H[+] ATPase M9.7 subunit a)	DRSC08289	6.38	6.81	5843	inactive
VhaM9.7-a (Vacuolar H[+] ATPase M9.7 subunit a)	DRSC28340	16.9	16.5	4378	inactive
DCTN6-p27 (Dynactin 6, p27 subunit)	DRSC02609	4.22	7.16	6262	inactive
DCTN6-p27 (Dynactin 6, p27 subunit)	DRSC22810	1.9	6.99	5201	inactive
DCTN6-p27 (Dynactin 6, p27 subunit)	DRSC29904	14.2	7.78	6370	inactive
CG10587	DRSC11627	8.3	2.19	6083	inactive
Gp93 (Glycoprotein 93)	DRSC15827	19.9	10.7	5538	inactive
Gp93 (Glycoprotein 93)	DRSC27798	16.4	15	6226	inactive
Reck (Reversion-inducing-cysteine-rich protein with kazal motifs)	DRSC10504	8.86	13.6	5779	inactive
Reck (Reversion-inducing-cysteine-rich protein with kazal motifs)	DRSC10505	2.53	1.69	6244	inactive

3 entries from above, ordered by “infection score, replicate 2”, descending:
predicted target	dsRNA	infection score, replicate 1	infection score, replicate 2	cell count, replicate 1	activity call
VhaM9.7-a (Vacuolar H[+] ATPase M9.7 subunit a)	DRSC28340	16.9	16.5	4378	inactive
DCTN6-p27 (Dynactin 6, p27 subunit)	DRSC02609	4.22	7.16	6262	inactive
VhaM9.7-a (Vacuolar H[+] ATPase M9.7 subunit a)	DRSC08289	6.38	6.81	5843	inactive

Next results follow:
predicted target	dsRNA	infection score, replicate 1	infection score, replicate 2	cell count, replicate 1	activity call
NijB (Ninjurin B)	DRSC09850	4.06	8.96	517	inactive
CG42586 + CG31775	DRSC01413	4.16	6.02	5547	inactive
Prp38 (pre-mRNA processing factor 38)	DRSC07060	6.55	13.9	1741	inactive
Prp38 (pre-mRNA processing factor 38)	DRSC28968	7.68	16.2	2500	inactive
CG13427	DRSC06389	2.26	1.24	5809	inactive
Charon	DRSC00679	1.32	5.63	6972	inactive
GlcAT-P (Glucuronyltransferase P)	DRSC10603	8.62	5.53	6603	inactive
GlcAT-P (Glucuronyltransferase P)	DRSC10604	1.67	1.54	6404	inactive
PLCXD	DRSC02427	5.97	3.46	6722	inactive
cN-IIIB (cytosolic 5'-nucleotidase IIIB)	DRSC04359	17.9	28.9	6215	inactive
Syb (Synaptobrevin)	DRSC07559	12.9	12.2	5776	inactive
Syb (Synaptobrevin)	DRSC25904	6.1	1.6	6048	inactive
blot (bloated tubules)	DRSC09485	1.06	0.33	5670	inactive
blot (bloated tubules)	DRSC11328	4.32	2.61	5420	inactive
blot (bloated tubules)	DRSC26157	12.3	5.97	5575	inactive
UQCR-C1 (Ubiquinol-cytochrome c reductase core protein 1)	DRSC15508	13.7	18.3	5257	inactive
VhaAC39-1 (Vacuolar H[+] ATPase AC39 subunit 1)	DRSC18242	1.11	3.04	6286	inactive
VhaAC39-1 (Vacuolar H[+] ATPase AC39 subunit 1)	DRSC27608	1.64	2.19	5431	active
Vha100-1 (Vacuolar H[+] ATPase 100kD subunit 1)	DRSC14148	1.83	2.72	5472	inactive
Vha100-1 (Vacuolar H[+] ATPase 100kD subunit 1)	DRSC26617	2.37	3.26	5792	inactive
Polr2M (RNA polymerase II subunit M)	DRSC15513	1.8	2.55	5996	inactive
Polr2M (RNA polymerase II subunit M)	DRSC25856	1.17	4.32	5896	inactive
rdhB (retinol dehydrogenase B)	DRSC16190	6.06	6.25	6685	inactive
CG42445	DRSC10858	6.63	3.37	6170	inactive
Naa20B (N(alpha)-acetyltransferase 20 B)	DRSC21442	2.54	5.41	5668	inactive
Naa20B (N(alpha)-acetyltransferase 20 B)	DRSC27158	9.39	14.3	6539	inactive
SP (Sex Peptide)	DRSC09664	0.33	3.14	6147	inactive
